Anti-infective test results gathered from many reports (values: NIAID ChemDB through PubChem).

Shared fields: target-level tests

Conditions beyond the fields shown may differ between rows. ICn is the concentration giving n% inhibition. An empty or dashed field is not shown. Inhibition is in % at the dose shown (toxicity tests: loss of growth or viability).

compound,strain,read-out,protein,method,tested at,agent,value
NC1=NC2C(C=CN2CC(CO)CCOP(=O)(O)OP(=O)(O)OP(=O)(O)O)C(=O)N1,,Ki,Polymerase,,,Herpes simplex virus 2,2.2 µM
Nc1nc2c(ncn2[C@@H](CCO)SCCO)c(=O)[nH]1,,Ki,Thymidine kinase,,,Herpes simplex virus 1,602 µM
C/C=C/c1cn([C@H]2C[C@H](O)[C@@H](CO)O2)c(=O)[nH]c1=O,,Ki,Thymidine kinase,,,Herpes simplex virus 2,6.2 µM
O=c1[nH]c(=O)n([C@@H]2O[C@H](CO)[C@@H](O)[C@@H]2F)cc1/C=C/Br,G,inhibition,Thymidine kinase,,200 µM,Herpes simplex virus 2,14%
CC[C@@H](NC(=O)[C@@H](NC(=O)[C@@H](CC(=O)[C@@H](NC(=O)NC1[C@H](C)CCC[C@@H]1C)C(C)(C)C)CC(=O)N1CCCC1)C1(C(=O)O)CCCC1)C(C)(C)C,,IC50,Ribonucleotide reductase,radioligand binding / binding,,Herpes simplex virus 1,<0.001 µM
CC[C@H](C)[C@H](NC(=O)[C@H](C(C)C)N(C)C(=O)Cc1ccc(O)cc1)C(=O)NC(CC(=O)N(C)CCc1ccccn1)C(=O)N[C@@H](CC(=O)O)C(=O)N[C@@H](CC(C)C)C(=O)O,,IC50,Ribonucleotide reductase,,,Herpes simplex virus 1,29 µM
Cc1ccc(S(=O)(=O)NC[C@H]2O[C@@H](n3cc(C)c(=O)[nH]c3=O)C[C@@H]2O)cc1,,IC50,Thymidine kinase,,,Herpes simplex virus 2,88 µM
C=Cc1cn([C@@H]2O[C@H](CO)[C@@H](O)[C@@H]2F)c(=O)nc1N,G,inhibition,Thymidine kinase,,200 µM,Herpes simplex virus 2,0%
CC(C)C(=O)NC[C@H]1O[C@@H](n2cc(I)c(=O)[nH]c2=O)C[C@@H]1O,,IC50,Thymidine kinase,,,Herpes simplex virus 2,7 µM
Nc1nc(-c2ccc(NC(=O)CCN(Cc3ccccc3)C(=O)C3Cc4ccccc4C3)cc2)cs1,F,IC50,Helicase-primase,,,Herpes simplex virus 1,15 µM
O=c1[nH]c(=O)n([C@@H]2O[C@H](CO)[C@@H](O)[C@@H]2F)cc1/C=C/Br,,Ki,DNA polymerase,,,Herpes simplex virus 1,0.67 µM
O=c1ccn([C@@H]2O[C@H](COP(=O)(O)O)[C@@H](O)[C@H]2O)c(=O)[nH]1,,inhibition,DNA polymerase,,2000 µM,Herpes simplex virus 1,76.1%
Nc1nc(-c2ccc(NC(=O)CN(CC3CCCCC3)C(=O)C3CCNCC3)cc2)cs1,KOS,IC50,Helicase-primase,,,Herpes simplex virus 1,>50 µM
O=C(NC[C@H]1O[C@@H](n2cc(I)c(=O)[nH]c2=O)C[C@@H]1O)c1ccccc1,,IC50,Thymidine kinase,,,Herpes simplex virus 2,16 µM
Cc1c(NC(=O)COCc2ccccc2)ccc2nc(N(C(C)C)C(C)C)oc(=O)c12,,IC50,Protease,,,Herpes simplex virus 1,1.5 µM
CCN(C(=O)N(C)CCc1ccncc1)c1nc2ccc(NC(=O)OC(C)(C)C)c(C)c2c(=O)o1,,IC50,Protease,,,Herpes simplex virus 1,0.9 µM
CCOC(=O)/C=C/c1cn([C@@H]2O[C@H](CO)[C@@H](O)[C@@H]2F)c(=O)nc1N,G,inhibition,Thymidine kinase,,200 µM,Herpes simplex virus 2,0%
Nc1nc(-c2ccc(NC(=O)CNCc3ccccc3)cc2)cs1,,IC50,Primase,,,Herpes simplex virus 1,0.66 µM
Nc1nc2c(ncn2COCCOP(=O)(O)OP(=O)(O)OP(=O)(O)O)c(=O)[nH]1,KOS,Ki,DNA polymerase,,,Herpes simplex virus 1,0.013 µM
C/C(=N\NC(=S)NNC(=S)Nc1ccccc1Br)c1ccccn1,,IC50,Ribonucleotide reductase,,,Herpes simplex virus 1,>5 µM
C#C[C@H]1O[C@@H](n2cc(C)c(=O)[nH]c2=O)C[C@@H]1O,333,Ki,Thymidine kinase,,,Herpes simplex virus 2,0.38 µM
CCc1cn([C@H]2C[C@H](O)[C@@H](CNC(=O)[C@@H](C)Oc3ccc(Cl)cc3Cl)O2)c(=O)[nH]c1=O,,IC50,Thymidine kinase,,,Herpes simplex virus 2,0.004 µM
C/C(=N\NC(=S)NNC(=S)Nc1ccc(C#N)cc1)c1ccccn1,,IC50,Ribonucleotide reductase,,,Herpes simplex virus 1,>5 µM
O=C(NCc1ccc(Cl)cc1)c1c[nH]c2c(F)cccc2c1=O,,Ki,Herpesvirus DNA polymerase,,,Herpes simplex virus 1,2.9 µM
CCc1cn([C@@H]2O[C@H](CO)[C@@H](O)[C@@H]2F)c(=O)nc1N,G,IC50,Thymidine kinase,,,Herpes simplex virus 2,>200 µM
CCCCC(=O)NC[C@H]1O[C@@H](n2cc(I)c(=O)[nH]c2=O)C[C@@H]1O,,IC50,Thymidine kinase,,,Herpes simplex virus 2,2 µM
C/C(=N\NC(=S)NNC(=S)Nc1ccc(Br)cc1)c1ccccn1,,IC50,Ribonucleotide reductase,,,Herpes simplex virus 1,>5 µM
Nc1nc2c(ncn2CCC(O)CO)c(=O)[nH]1,,Ki,DNA polymerase,,,Herpes simplex virus 1,1.5 µM
CC[C@@H](NC(=O)[C@@H](NC(=O)[C@@H](CC(=O)[C@@H](NC(=O)NC1[C@H](C)CCC[C@@H]1C)C(C)(C)C)CC(=O)C(C)(C)C)C1(C(=O)O)CCCC1)C(C)(C)C,,IC50,Ribonucleotide reductase,radioligand binding / binding,,Herpes simplex virus 2,<0.001 µM
C/C(=N\NC(=S)NNC(=S)Nc1cccc(I)c1)c1ccccn1,,IC50,Ribonucleotide reductase,,,Herpes simplex virus 1,>5 µM
NC(=O)c1ncn([C@@H]2O[C@H](COP(=O)(O)O)[C@@H](O)[C@H]2O)n1,,IC50,DNA polymerase,,,Herpes simplex virus 1,<2000 µM
Nc1nc2c(ncn2CC[C@H](O)CO)c(=O)[nH]1,,Ki,Thymidine kinase,,,Herpes simplex virus 1,1.69 µM
Nc1nc(-c2ccc(Cl)cc2)cs1,UL5/8/52,IC50,Helicase,,,Herpes simplex virus 1,5 µM
CC[C@H](C)[C@H](NC(=O)[C@H](C(C)C)N(C)C(=O)CCc1ccccc1)C(=O)N[C@@H](CC(=O)N1CCCC1)C(=O)N[C@H](C(=O)N[C@@H](CC(C)C)C(=O)O)C(C)(C)C(=O)O,,IC50,Ribonucleotide reductase,,,Herpes simplex virus 1,0.28 µM
CCN(C(=O)N(C)CCc1ccccn1)c1nc2ccc(NC(=O)CCCNC(=O)c3cccnc3)c(C)c2c(=O)o1,,IC50,Protease,,,Herpes simplex virus 1,0.9 µM
C/C(=N\NC(=S)NNC(=S)Nc1ccccc1Cl)c1ccccn1,,IC50,Ribonucleotide reductase,,,Herpes simplex virus 1,>5 µM
Nc1nc(N)c2ncn([C@@H]3O[C@H](COP(=O)(O)OP(=O)(O)O)[C@@H](O)[C@H]3O)c2n1,,inhibition,DNA polymerase,,2000 µM,Herpes simplex virus 1,96.1%
Cc1cn(C(CCN=[N+]=[N-])OCCO)c(=O)[nH]c1=O,,Ki,Thymidine kinase,,,Herpes simplex virus 1,155 µM
O=c1[nH]cnc2c1ncn2[C@@H]1O[C@H](CO)[C@@H](O)[C@H]1O,,IC50,DNA polymerase,,,Herpes simplex virus 1,<2000 µM
Nc1nc(-c2ccc(NC(=O)CNCc3cccc(F)c3)cc2)cs1,KOS,IC50,Helicase-primase,,,Herpes simplex virus 1,0.5 µM
C/C(=N\NC(=S)NNC(=S)Nc1ccccn1)c1ccccn1,,IC50,Ribonucleotide reductase,,,Herpes simplex virus 1,<5 µM
Cc1c(NC(=O)OC(C)(C)C)ccc2nc(N(CCC(C)C)C(=O)N(C)CCc3cccnc3)oc(=O)c12,,IC50,Protease,,,Herpes simplex virus 1,2 µM
COC(=O)CC(SCCO)n1cc(C)c(=O)[nH]c1=O,,Ki,Thymidine kinase,,,Herpes simplex virus 1,406 µM
Nc1nc2c(ncn2CC[C@@H](CO)COP(=O)(O)OP(=O)(O)OP(=O)(O)O)c(=O)[nH]1,,Ki,DNA polymerase,,,Herpes simplex virus 1,8.5 µM
Cc1cn([C@H]2C[C@H](O)[C@@H](CNS(=O)(=O)CCCS(=O)(=O)O)O2)c(=O)[nH]c1=O,,IC50,Thymidine kinase,,,Herpes simplex virus 2,>200 µM
CCc1cn([C@H]2C[C@H](O)[C@@H](CO)O2)c(=O)[nH]c1=O,,IC50,Thymidine kinase,,,Herpes simplex virus 2,0.51 µM
Cc1cn([C@@H]2O[C@H](CO)[C@@H](O)[C@@H]2F)c(=O)nc1N,G,inhibition,Thymidine kinase,,200 µM,Herpes simplex virus 2,0%
C/C(=N\NC(=S)NNC(=S)Nc1ccc(Cl)cc1)c1ccccn1,,IC50,Ribonucleotide reductase,,,Herpes simplex virus 1,<5 µM
CC(C)(C)OC(=O)[C@H](Cc1ccccc1)NC(=O)Nc1ccc(-c2csc(N)n2)cc1,KOS,IC50,Helicase-primase,,,Herpes simplex virus 1,0.07 µM

5 of the rows above, restated:

compound | strain | read-out | protein | method | tested at | agent | value
Cc1c(NC(=O)COCc2ccccc2)ccc2nc(N(C(C)C)C(C)C)oc(=O)c12 |  | IC50 | Protease |  |  | Herpes simplex virus 1 | 1.5 µM
CCOC(=O)/C=C/c1cn([C@@H]2O[C@H](CO)[C@@H](O)[C@@H]2F)c(=O)nc1N | G | inhibition | Thymidine kinase |  | 200 µM | Herpes simplex virus 2 | 0%
CC[C@@H](NC(=O)[C@@H](NC(=O)[C@@H](CC(=O)[C@@H](NC(=O)NC1[C@H](C)CCC[C@@H]1C)C(C)(C)C)CC(=O)C(C)(C)C)C1(C(=O)O)CCCC1)C(C)(C)C |  | IC50 | Ribonucleotide reductase | radioligand binding / binding |  | Herpes simplex virus 2 | <0.001 µM
Nc1nc(N)c2ncn([C@@H]3O[C@H](COP(=O)(O)OP(=O)(O)O)[C@@H](O)[C@H]3O)c2n1 |  | inhibition | DNA polymerase |  | 2000 µM | Herpes simplex virus 1 | 96.1%
O=c1[nH]cnc2c1ncn2[C@@H]1O[C@H](CO)[C@@H](O)[C@H]1O |  | IC50 | DNA polymerase |  |  | Herpes simplex virus 1 | <2000 µM